Laboratory results as given in PMC9569420 (Communications Biology, 2022).
Values joined by “and” are separate entries in the source; they are usually repeats but may differ in a detail not shown here. Equal values may be shown once. Read-outs that look alike come from different tables or passages of the source.

Assays:
[1] = target: T1, mTOR/FRAP1 (Homo sapiens, UniProt P42345); assay: HotSpot kinase assay; type: biochemical; conditions: 10µM
T1 construct: purchased Reaction Biology Corporation

[2] = target: T2, DMPK2 (Homo sapiens, UniProt Q6DT37); assay: HotSpot kinase assay; type: biochemical; conditions: 10µM
T2 construct: purchased Reaction Biology Corporation

[3] = target: T3, ASK1/MAP3K5 (Homo sapiens, UniProt Q99683); assay: HotSpot kinase assay; type: biochemical; conditions: 10µM
T3 construct: purchased Reaction Biology Corporation

[4] = target: T4, c-Src (Homo sapiens, UniProt P12931); type: biochemical; conditions: 10µM
T4 construct: purchased Reaction Biology Corporation

[5] = target: T5, CDK8/cyclin C (Homo sapiens, UniProt P49336); assay: HotSpot kinase assay; type: biochemical; conditions: 10µM
T5 construct: purchased Reaction Biology Corporation

[6] = target: T6, FRK/PTK5 (Homo sapiens, UniProt P42685); assay: HotSpot kinase assay; type: biochemical; conditions: 10µM
T6 construct: purchased Reaction Biology Corporation

[7] = target: T7, MEKK6 (Homo sapiens, UniProt O95382); assay: HotSpot kinase assay; type: biochemical; conditions: 10µM
T7 construct: purchased Reaction Biology Corporation

[8] = target: T8, DYRK4 (Homo sapiens, UniProt Q9NR20); assay: HotSpot kinase assay; type: biochemical; conditions: 10µM
T8 construct: purchased Reaction Biology Corporation

[9] = target: T9, CAMK1a (Homo sapiens, UniProt Q14012); assay: HotSpot kinase assay; type: biochemical; conditions: 10µM
T9 construct: purchased Reaction Biology Corporation

[10] = target: T10, FLT1/VEGFR1 (Homo sapiens, UniProt P17948); assay: HotSpot kinase assay; type: biochemical; conditions: 10µM
T10 construct: purchased Reaction Biology Corporation

[11] = target: T11, FLT4/VEGFR3 (Homo sapiens, UniProt P35916); assay: HotSpot kinase assay; type: biochemical; conditions: 10µM
T11 construct: purchased Reaction Biology Corporation

[12] = target: T12, PLK2 (Homo sapiens, UniProt Q9NYY3); assay: HotSpot kinase assay; type: biochemical; conditions: 10µM
T12 construct: purchased Reaction Biology Corporation

[13] = target: T13, P38g (Homo sapiens, UniProt P53778); assay: HotSpot kinase assay; type: biochemical; conditions: 10µM
T13 construct: purchased Reaction Biology Corporation

[14] = target: T14, FLT3 (Homo sapiens, UniProt P36888); assay: HotSpot kinase assay; type: biochemical; conditions: 10µM
T14 construct: purchased Reaction Biology Corporation

[15] = target: T15, PKA (Homo sapiens, UniProt P17612); assay: HotSpot kinase assay; type: biochemical
T15 construct: purchased Reaction Biology Corporation

[16] = target: T16, GRK3 (Homo sapiens, UniProt P35626); assay: HotSpot kinase assay; type: biochemical; conditions: 10µM
T16 construct: purchased Reaction Biology Corporation

[17] = system: VSV-S; type: cell-based, VSV pseudotyped with SARS-CoV-2 spike
[18] = target: T17, RSK3 (Homo sapiens, UniProt Q15349); assay: HotSpot kinase assay; type: biochemical; conditions: 10µM
T17 construct: purchased Reaction Biology Corporation

[19] = target: T18, DYRK3 (Homo sapiens, UniProt O43781); assay: HotSpot kinase assay; type: biochemical; conditions: 10µM
T18 construct: purchased Reaction Biology Corporation

[20] = target: T19, MEKK1 (Homo sapiens, UniProt Q13233); assay: HotSpot kinase assay; type: biochemical; conditions: 10µM
T19 construct: purchased Reaction Biology Corporation

[21] = target: T20, ULK1 (Homo sapiens, UniProt O75385); type: biochemical; conditions: 10µM
T20 construct: purchased Reaction Biology Corporation

[22] = target: T21, PLK3 (Homo sapiens, UniProt Q9H4B4); assay: HotSpot kinase assay; type: biochemical; conditions: 10µM
T21 construct: purchased Reaction Biology Corporation

[23] = target: T22, HGK/MAP4K4 (Homo sapiens, UniProt O95819); assay: HotSpot kinase assay; type: biochemical; conditions: 10µM
T22 construct: purchased Reaction Biology Corporation

[24] = target: T23, SNRK (Homo sapiens, UniProt Q9NRH2); assay: HotSpot kinase assay; type: biochemical; conditions: 10µM
T23 construct: purchased Reaction Biology Corporation

[25] = target: T24, ULK3 (Homo sapiens, UniProt Q6PHR2); assay: HotSpot kinase assay; type: biochemical; conditions: 10µM
T24 construct: purchased Reaction Biology Corporation

[26] = target: T25, P38b/MAPK11 (Homo sapiens, UniProt Q15759); assay: HotSpot kinase assay; type: biochemical; conditions: 10µM
T25 construct: purchased Reaction Biology Corporation

[27] = target: T26, AKT1 (Homo sapiens, UniProt P31749); type: biochemical
T26 construct: purchased Reaction Biology Corporation

[28] = target: T27, RSK1 (Homo sapiens, UniProt Q15418); assay: HotSpot kinase assay; type: biochemical; conditions: 10µM
T27 construct: purchased Reaction Biology Corporation

[29] = target: T28, GRK6 (Homo sapiens, UniProt P43250); assay: HotSpot kinase assay; type: biochemical; conditions: 10µM
T28 construct: purchased Reaction Biology Corporation

[30] = target: T29, IGF1R (Homo sapiens, UniProt P08069); assay: HotSpot kinase assay; type: biochemical; conditions: 10µM
T29 construct: purchased Reaction Biology Corporation

[31] = target: T30, CDK19/cyclin C (Homo sapiens, UniProt Q9BWU1); assay: HotSpot kinase assay; type: biochemical; conditions: 10µM
T30 construct: purchased Reaction Biology Corporation

[32] = target: T31, ULK2 (Homo sapiens, UniProt Q8IYT8); assay: HotSpot kinase assay; type: biochemical; conditions: 10µM
T31 construct: purchased Reaction Biology Corporation

[33] = target: T32, TLK2 (Homo sapiens, UniProt Q86UE8); assay: HotSpot kinase assay; type: biochemical; conditions: 10µM
T32 construct: purchased Reaction Biology Corporation

SMILES: CO[C@@H]1[C@H](N(C)C(=O)CCC(=O)NCc2cn(CCCS(=O)(=O)O)nn2)C[C@H]2O[C@]1(C)n1c3ccccc3c3c4c(c5c6ccccc6n2c5c31)C(=O)NC4 [CIMSS]
- % Enzyme Activity (relative to DMSO controls) [1]: 107.76%
- % Enzyme Activity (relative to DMSO controls) [2]: 9.78%
- % Enzyme Activity (relative to DMSO controls) [3]: 6.05%
- % Enzyme Activity (relative to DMSO controls) [4]: 2.85%
- % Enzyme Activity (relative to DMSO controls) [5]: 10.03%
- % Enzyme Activity (relative to DMSO controls) [6]: 4.46%
- % Enzyme Activity (relative to DMSO controls) [7]: 107.81%
- % Enzyme Activity (relative to DMSO controls) [8]: 91.31%
- % Enzyme Activity (relative to DMSO controls) [9]: 28.61%
- % Enzyme Activity (relative to DMSO controls) [10]: 2.85%
- % Enzyme Activity (relative to DMSO controls) [11]: 1.86%
- % Enzyme Activity (relative to DMSO controls) [12]: 26.59%
- % Enzyme Activity (relative to DMSO controls) [13]: 29.80%
- % Enzyme Activity (relative to DMSO controls) [14]: 4.52%
- fold less effective than staurosporine (IC50) [15]: ~ 46 fold
- % Enzyme Activity (relative to DMSO controls) [16]: 46.87%
- infectious viral yields relative to DMSO control [17]: 39.3 and 47.1
- infectious viral yields relative to DMSO control ([17]; conc 10): 28 and 34.8
- infectious viral yields relative to DMSO control ([17]; conc 50): 28 and 26
- infectious viral yields relative to DMSO control ([17]; conc 100): 25 and 24.2
- % Enzyme Activity (relative to DMSO controls) [18]: 3.24%
- % Enzyme Activity (relative to DMSO controls) [19]: 27.70%
- % Enzyme Activity (relative to DMSO controls) [20]: 65.72%
- % Enzyme Activity (relative to DMSO controls) [21]: 13.46%
- % Enzyme Activity (relative to DMSO controls) [22]: 93.76%
- % Enzyme Activity (relative to DMSO controls) [23]: 0.44% and -0.12%
- % Enzyme Activity (relative to DMSO controls) [24]: 72.07%
- % Enzyme Activity (relative to DMSO controls) [25]: 11.94%
- % Enzyme Activity (relative to DMSO controls) [26]: 83.74%
- fold less effective than staurosporine (IC50) [27]: ~ 230 fold
- % Enzyme Activity (relative to DMSO controls) [28]: 2.95%
- % Enzyme Activity (relative to DMSO controls) [29]: 8.11%
- % Enzyme Activity (relative to DMSO controls) [30]: 6.42%
- % Enzyme Activity (relative to DMSO controls) [31]: 37.25%
- % Enzyme Activity (relative to DMSO controls) [32]: 13.54%
- % Enzyme Activity (relative to DMSO controls) [33]: 66.39%
